A mixed list of measured activities; the numbers were collected in NIAID ChemDB.

All rows: growth or infection tests; agent: HIV-1; endpoint: EC50

ECn is the concentration giving n% inhibition of infection, replication or growth. Lines come from different laboratories, so protocols vary. An empty or dashed field is not shown.

structure | cells | strain or isolate | mutations | result
CC(C)Nc1cccnc1N1CCN(C(=O)c2cc3cc(NS(C)(=O)=O)ccc3[nH]2)CC1 | PBMC | A17 | RT-K103N Y181C | >100 µM
CCOC(=O)c1cn([C@@H]2O[C@@H](COC(=O)c3ccccc3)[C@H](OC(=O)c3ccccc3)[C@H]2F)nn1 |  |  |  | >100 µM
Nc1nc(=O)n([C@@H]2CC[C@H](CO)O2)cc1F | HT4 + HT4 LacZ-1 | RTMC (RT D67N K70R T215F K219Q) | RT-D67N K70R T215F K219Q | 1 µM
O=C(O)[C@@H](C1CCCCC1)N1C[C@H](CN2CCC(O)(CCCc3ccccc3)CC2)[C@@H](c2ccccc2)C1 | PBMC | BaL |  | 0.187 µM
CCN1c2ncc(CCc3ccc(OCP(=O)(O)O)cc3)cc2C(=O)N(C)c2cccnc21 |  |  |  | >5 µM
O=C1CS(=O)(=O)OC12C1CC3CC(C1)CC2C3 |  |  |  | >200 µg/mL
CCCCC#CCSc1ccccc1OC(C)=O | MT-2 | HXB2 |  | 10 µM
Cc1cc(S(N)(=O)=O)ccc1NC(=O)COc1ccccc1C(=O)c1cc(Cl)cc(C#N)c1 |  | IIIB |  | <0.002 µM
NC(=O)c1cn(C2OC(CO)C(O)C2F)nn1 |  |  |  | >1 µM
O=C(O)[C@@H](C1CCCCC1)N1C[C@H](CN2CCC(CCCc3ccccc3)CC2)[C@@H](c2ccccc2)C1 | PBMC | BaL |  | 0.077 µM
COc1ccc(S(=O)(=O)N(CC(C)C)C[C@@H](O)[C@H](Cc2ccccc2)NC(=O)O[C@@H]2CO[C@@H]3OCC[C@@H]32)cc1 | MT-2 + MT-4 | IIIB |  | 0.0003 µM
S=C(NCCc1ccccn1)Nc1ccc(Br)cn1 | PBMC | A17 | RT-K103N Y181C | >100 µM
O=c1[nH]cnc2c1ncn2[C@H]1CC[C@@H](CO)O1 | Jurkat cells | NL4-3 |  | 2.045 µM
Cc1cn([C@H]2C=C[C@@H](COP3(=O)Oc4ccccc4C(C(Cl)(Cl)Cl)O3)O2)c(=O)[nH]c1=O | CEM |  |  | 0.2 µM
Nc1ncnc2c1ncn2CCOCP(=O)(O)O | PBMC | LAI |  | 5.4 µM
Cc1cn([C@H]2C[C@H](N=[N+]=[N-])[C@@H](CO)O2)c(=O)[nH]c1=O | MT-4 | IIIB |  | <0.013 µM
Cc1cn([C@H]2C=C[C@@H](CO)O2)c(=O)[nH]c1=O | CEM |  |  | 0.42 µM
COc1ccc(C[C@H](NC(=O)O[C@H]2CCO[C@H]3OCC[C@H]32)[C@H](O)CN(C[C@H]2CCC(=O)N2)S(=O)(=O)c2ccc(OC)cc2)cc1 | MT-2 | LAI |  | <1 µM
Cc1cn([C@H]2C=C[C@@H](COP(=O)(OCc3ccccc3)OCc3ccccc3)O2)c(=O)[nH]c1=O | MT-4 |  |  | >100 µM
Cc1cn([C@H]2C=C[C@@H](COP3(=O)Oc4cccc(Cl)c4C(C)O3)O2)c(=O)[nH]c1=O | CEM |  |  | 0.2 µM
Cc1ccnc2c1NC(=O)c1cccnc1N2C1CC1 | PBMC | BCF07 | RT-A98G V106I Y181C | 17 µM
Cc1cn([C@H]2C[C@H](N=[N+]=[N-])[C@@H](COP(=O)(O)OCc3ccccc3)O2)c(=O)[nH]c1=O | CEM + CEM TK- |  |  | >100 µM
Nc1ccn([C@H]2CC[C@@H](CO)O2)c(=O)n1 | MT-4 | IIIB |  | 2.2 µM
O=C1O[C@H]2[C@@H]3OC(=O)c4cc(O)c(O)c(O)c4-c4c(cc(O)c(O)c4O)C(=O)OC[C@H]2O[C@@H](OC(=O)c2cc(O)c(O)c(O)c2)[C@@H]3OC(=O)c2cc(O)c(O)c3c2[C@@H]2C1=CC(=O)[C@](O)(O3)C2(O)O | MAGI | NNRTI-resistant (RT K103N) ARP1010 | RT-K103N | 0.83 µg/mL
C[C@]1(CCP(=O)(O)O)CO[C@@H](n2cnc3c(=O)[nH]c(N)nc32)C1 | PBMC | LAI |  | 85 µM
CC(C)=CCN1Cc2cc(Cl)cc3[nH]c(=S)n(c23)C[C@@H]1C | PBMC | MVP5180 (RT A98G K103R) | RT-A98G K103R | >6.25 µM
C[C@H](Cn1cnc2c(N)ncnc21)OCP(=O)(O)O | Primary T lymphocytes | NL4-3 | +Vpx | 6.822 µM
Cc1cn([C@H]2C=C[C@@H](CO)O2)c(=O)[nH]c1=O | CEM + CEM TK- |  |  | 14 µM
Cc1cn(Cc2nc3n(n2)CCCCCC3)c(=O)[nH]c1=O | MT-4 | IIIB |  | >67 µg/mL
Cc1cc(C#N)cc(C)c1Oc1nc(Nc2ccc(C#N)cc2)nc(N)c1Br | TZM-bl | LAI | E138G | 0.0032 µM
S=C(NCCC1=CCCCC1)Nc1ccc(Br)cn1 | PBMC | RT-MDR(RT-V106A) | RT-V106A | 0.001 µM
Cc1nnc(C(=O)NC(C)(C)c2nc(C(=O)NCc3ccc(F)cc3)c(O)c(=O)n2C)o1 | MT-4 | NL4-3 |  | 0.005 µM
Nc1ccn([C@H]2CC[C@@H](CO)O2)c(=O)n1 | PBMC | BCF06 | RT-A98G K103R | 0.16 µM
O=C(N[C@H]1c2ccccc2C[C@H]1O)[C@H](OCc1ccccc1)[C@H](O)[C@@H](O)[C@@H](OCc1ccccc1)C(=O)N[C@H]1c2ccccc2C[C@H]1O | MT-4 |  |  | 0.096 µM
Cc1cn([C@H]2C=C[C@@H](COP(=O)(O)O)O2)c(=O)[nH]c1=O | CEM + CEM-SS |  |  | 0.73 µM
Nc1nc(=O)n([C@@H]2CS[C@H](CO)O2)cc1F | TZM-bl | LAI | E138R | 1.3 µM
CCC[C@@H](c1ccc(C(F)(F)F)cc1)N1CCN(C2(C)CCN(C(=O)c3c(C)ncnc3C)CC2)C[C@@H]1C | U-80 | YU-2 Clinical isolates |  | 0.00035 µM
[N-]=[N+]=N[C@@H]1O[C@@H](COC(=O)c2ccccc2)[C@H](OC(=O)c2ccccc2)[C@H]1F |  |  |  | >100 µM
Cc1ccc(NC(=S)NCCC2=CCCCC2)nc1 | PBMC | IIIB |  | 0.005 µM
Cc1cn([C@H]2C=C[C@@H](COP3(=O)Oc4ccccc4C(CCl)O3)O2)c(=O)[nH]c1=O | CEM |  |  | 0.2 µM
CO[P@](=O)(c1cc(C)cc(/C=C/C#N)c1)c1c(C(N)=O)[nH]c2ccc(Cl)c(F)c12 | U-937 | BH10 |  | 0.0006 µM
NC(=O)c1nnn([C@@H]2O[C@@H](CO)[C@H](O)[C@H]2F)c1N |  |  |  | >100 µM
Cc1ncnc(C)c1C(=O)N1CCC(C)(N2CCN([C@@H](Cc3ccccc3)c3ccc(C(F)(F)F)cc3)[C@@H](C)C2)CC1 | PBMC | 301657 Clinical isolates |  | <0.0006 µM
S=C(NCCC1=CCCCC1)Nc1ccc(Cl)cn1 | PBMC | RT-MDR(RT-V106A) | RT-V106A | 0.001 µM
Cc1cn([C@H]2C[C@H](N=[N+]=[N-])[C@@H](CO)O2)c(=O)[nH]c1=O | MT-4 |  | Raltegravir-resistant IN Q148H/G140S | 0.002 µM

The last 3 rows once more:

| structure | cells | strain or isolate | mutations | result |
|---|---|---|---|---|
| Cc1ncnc(C)c1C(=O)N1CCC(C)(N2CCN([C@@H](Cc3ccccc3)c3ccc(C(F)(F)F)cc3)[C@@H](C)C2)CC1 | PBMC | 301657 Clinical isolates |  | <0.0006 µM |
| S=C(NCCC1=CCCCC1)Nc1ccc(Cl)cn1 | PBMC | RT-MDR(RT-V106A) | RT-V106A | 0.001 µM |
| Cc1cn([C@H]2C[C@H](N=[N+]=[N-])[C@@H](CO)O2)c(=O)[nH]c1=O | MT-4 |  | Raltegravir-resistant IN Q148H/G140S | 0.002 µM |